The results in this text go back to patent US20060121056A1.

For the test, the target named is SNAP-25 (rat) (UniProt P60881).

For “SBA-LHN/A conjugate (lectin from Glycine max chemically conjugated to LHN/A) (enzyme)”, the IC50, inhibition of substance P release from eDRG neurons (three days) (microgrammes/ml) was determined as 1.84.
